# Source: PubChem BioAssay AID651654 (Broad Institute, 2012)
# Only a part is listed here, and it is no random draw. Calls of active or inactive are those of the source.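 How the source made its calls: active means mean lysis activity across replicates of at least 80%, whatever share of replicates individually reach that level; inactive means mean lysis activity below 80%.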
# Assay: fungicidal lysis via adenylate kinase leakage – AK release luminescence, single concentration, primary screen (AID 651654)
# Conditions: C. neoformans lysis, 4 h, at 15 µM, active compounds read high, normalised: neutral wells 0, clomiphene wells 100
# Method in brief: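 Test system: log-phase Cryptococcus neoformans yeast cells; Quantity: yeast cell density of 5 × 10^6 cells/mL; Buffer or medium: YPD; Doses: single compound concentration per well; Timing: 4 h at 37 °C static, read 1 h later; Measured by: AK luminescence; Read-out basis: lysis from increased AK signal; Control set: Clomiphene as positive control.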
row,Structure (SMILES),lysis activity
1,O=c1[nH]c2ccccc2n1C1CCN(C(c2ccccc2OC(F)(F)F)c2nnnn2C2CCCCC2)CC1 (stereo not drawn),inactive: -0.335%
2,O=C(NCC1(N2CCCCC2)CCCCC1)c1ccc(Cl)nc1,inactive: -1.73%
3,Cc1cc(C)cc(N(C(=O)c2ccccc2)C2CCN(C(=O)OC(C)(C)C)CC2)c1,inactive: -0.738%
4,CCOC(=O)N1CCC(Nc2ccc(OC)cc2)CC1,inactive: -0.497%
5,CCCCn1nnnc1C(c1ccc(OC)cc1)N1CCC(n2c(=O)[nH]c3ccccc32)CC1 (stereo not drawn),inactive: 2.28%
6,O=C(OC1CN2CCC1CC2)C1c2ccccc2Oc2ccccc21 (stereo not drawn),inactive: 13.4%
7,O=c1[nH]c2ccccc2n1C1CCN(C(c2cc3ccccc3o2)c2nnnn2C2CCCCC2)CC1 (stereo not drawn),inactive: -1.01%
8,O=C(NCC1(N2CCCCC2)CCCCC1)c1ccc(Cl)s1,inactive: -0.211%
9,O=C(NCC1(N2CCCCC2)CCCCC1)c1ccc(=O)[nH]c1,inactive: -1.45%
10,CCCCn1nnnc1C(c1cccs1)N1CCC(n2c(=O)[nH]c3ccccc32)CC1 (stereo not drawn),inactive: 1.95%
11,O=C(NCC1(N2CCCCC2)CCCCC1)c1cccs1,inactive: -1.86%
12,CCCCn1nnnc1C(CC)N1CCC(n2c(=O)[nH]c3ccccc32)CC1 (stereo not drawn),inactive: -0.704%
13,COc1ccc(C(=O)NCC2(N3CCCCC3)CCCCC2)cc1,inactive: 0.064%
14,CCC(c1nnnn1C1CCCC1)N1CCC(n2c(=O)[nH]c3ccccc32)CC1 (stereo not drawn),inactive: -1.01%
15,CC(C)(C)OC(=O)N1CCC(N(C(=O)c2ccccc2)c2ccc(F)cc2)CC1,inactive: 0.598%
16,CSc1ccccc1C(=O)NCC1(N2CCCCC2)CCCCC1,inactive: -2.37%
17,Cc1cccc(NC2(C#N)CCN(Cc3ccccc3)CC2)c1,inactive: -0.429%
18,O=c1[nH]c2ccccc2n1C1CCN(C(c2ccccc2)c2nnnn2C2CCCCC2)CC1 (stereo not drawn),inactive: -1.19%
19,O=c1[nH]c2ccccc2n1C1CCN(C(c2cccc3ccccc23)c2nnnn2C2CCCC2)CC1 (stereo not drawn),inactive: -13.2%
20,COc1cc(C(=O)NCC2(N(C)C)CCCCC2)ccc1OC(F)F,inactive: 1.25%

row,Structure (SMILES),lysis activity
1,CCOC(=O)N1CCC(Nc2cccc(C)c2)CC1,inactive: -0.224%
2,CC(C)(C)n1nnnc1C(c1ccccc1)N1CCC(n2c(=O)[nH]c3ccccc32)CC1 (stereo not drawn),inactive: 3.38%
3,O=C1CCN(Cc2ccccc2)CC1,inactive: -5.19%
4,O=C(NCC1(N2CCCCC2)CCCCC1)c1ccc(F)cc1,inactive: -0.3%
5,O=P1(N(CCCl)CCCl)SCCCS1,inactive: 2.52%
6,CCCCn1nnnc1C(c1cc2ccccc2o1)N1CCC(n2c(=O)[nH]c3ccccc32)CC1 (stereo not drawn),inactive: -13.4%
7,CCCCOc1ccc(C(=O)NCC2(N3CCOCC3)CCCCC2)cc1,inactive: -0.694%
8,COc1ccc(NC2CCN(CCc3ccccc3)CC2)c(OC)c1,inactive: -1.89%
9,CCOC(=O)N1CCC(Nc2ccc(F)cc2)CC1,inactive: 0.658%
10,O=C(NCC1(N2CCCCC2)CCCCC1)c1cccc(C(F)(F)F)c1,inactive: 0.699%
11,CCCCn1nnnc1C(c1cccc2ccccc12)N1CCC(n2c(=O)[nH]c3ccccc32)CC1 (stereo not drawn),inactive: -0.156%
12,CN1CCN(CCOC(=O)C(O)(c2ccccc2)c2ccccc2)CC1,inactive: -4.65%
13,COc1cc(C(=O)NCC2(N3CCCCC3)CCCCC2)ccc1OC(F)F,inactive: -2.72%
14,O=C(NCC1(N2CCOCC2)CCCCC1)c1cc(=O)[nH]c2ccccc12,inactive: -0.175%
15,CC(C)(C)n1nnnc1C(c1ccccc1OC(F)(F)F)N1CCC(n2c(=O)[nH]c3ccccc32)CC1 (stereo not drawn),inactive: -12.3%
16,O=C(NCC1(N2CCCCC2)CCCCC1)c1ccc(OC(F)F)cc1,inactive: 2.18%
17,CSc1ccc(C(=O)NCC2(N3CCOCC3)CCCCC2)cc1,inactive: -0.012%
18,CCN1CCC(Nc2ccc(Cl)cc2)CC1,inactive: -0.65%
19,N#CC1(Nc2ccccc2)CCN(CCc2ccccc2)CC1,inactive: 2.82%
20,O=c1[nH]c2ccccc2n1C1CCN(C(c2ccccc2OC(F)(F)F)c2nnnn2C2CCCC2)CC1 (stereo not drawn),inactive: 0.531%

row,Structure (SMILES),lysis activity
1,O=C(NCC1(N2CCCCC2)CCCCC1)c1cncc(Br)c1,inactive: 1.39%
2,CN1CCC(Nc2cccc(F)c2)CC1,inactive: -1.73%
3,Cc1ccc(C(=O)NCC2(N(C)C)CCCCC2)o1,inactive: 7.04%
4,CCCOc1ccc(C(=O)NCC2(N(C)C)CCCCC2)cc1OC,inactive: -1.68%
5,COc1ccc(C(c2nnnn2C2CCCC2)N2CCC(n3c(=O)[nH]c4ccccc43)CC2)cc1 (stereo not drawn),inactive: 2.05%
6,CN(C)c1cccc(C(=O)NCC2(N3CCCCC3)CCCCC2)c1,inactive: 2.05%
7,CCCCn1nnnc1C(c1ccccc1OC(F)(F)F)N1CCC(n2c(=O)[nH]c3ccccc32)CC1 (stereo not drawn),inactive: -15.7%
8,CCCCn1nnnc1C(c1ccnc2ccccc12)N1CCC(n2c(=O)[nH]c3ccccc32)CC1 (stereo not drawn),inactive: -1.39%
9,COc1cc(OC)c(C(=O)NCC2(N(C)C)CCCCC2)cc1OC,inactive: -3.48%
10,O=C(NCC1(N2CCOCC2)CCCCC1)c1cc(F)c(F)cc1Cl,inactive: -2.66%
11,CCC(c1nnnn1C(C)(C)C)N1CCC(n2c(=O)[nH]c3ccccc32)CC1 (stereo not drawn),inactive: -0.683%
12,N/C(=N\O)c1c(N)no[n+]1[O-],inactive: 0.12%
13,COc1cccc(C(c2nnnn2C(C)(C)C)N2CCC(n3c(=O)[nH]c4ccccc43)CC2)c1OC (stereo not drawn),inactive: -2.03%
14,CCOC(=O)N1CCC(Nc2ccc(C)cc2)CC1,inactive: 1.28%
15,CCCCn1nnnc1C(c1cccc(OC)c1OC)N1CCC(n2c(=O)[nH]c3ccccc32)CC1 (stereo not drawn),inactive: -0.407%
16,O=c1[nH]c2ccccc2n1C1CCN(C(c2cccs2)c2nnnn2C2CCCC2)CC1 (stereo not drawn),inactive: -1.69%
17,O=C(NCC1(N2CCOCC2)CCCCC1)c1cc(Br)ccc1Cl,inactive: -1.79%
18,CCCCn1nnnc1C(c1ccccc1)N1CCC(n2c(=O)[nH]c3ccccc32)CC1 (stereo not drawn),inactive: -0.353%
